Tested on: acetylcholine receptor (AChR)
Test: AChR sensor response (AC impedance) to agent challenge
Assay type: binding, Electrophorus electricus
Settings: agent 5 ug/ml

## Alpha-bungarotoxin
  % Change with respect to control sensor: 0%

Reference: US5192507A (priority 1991, dated 1993)
